Measured values from PMC6283646, “Identification and binding mode of a novel Leishmania Trypanothione reductase inhibitor from high throughput screening” (PLoS Neglected Tropical Diseases, 2018).

Amino acid sequences for entries named in this document (tags omitted). Residues count along the entry.
UniProt P00390, 44-522 limits assumed: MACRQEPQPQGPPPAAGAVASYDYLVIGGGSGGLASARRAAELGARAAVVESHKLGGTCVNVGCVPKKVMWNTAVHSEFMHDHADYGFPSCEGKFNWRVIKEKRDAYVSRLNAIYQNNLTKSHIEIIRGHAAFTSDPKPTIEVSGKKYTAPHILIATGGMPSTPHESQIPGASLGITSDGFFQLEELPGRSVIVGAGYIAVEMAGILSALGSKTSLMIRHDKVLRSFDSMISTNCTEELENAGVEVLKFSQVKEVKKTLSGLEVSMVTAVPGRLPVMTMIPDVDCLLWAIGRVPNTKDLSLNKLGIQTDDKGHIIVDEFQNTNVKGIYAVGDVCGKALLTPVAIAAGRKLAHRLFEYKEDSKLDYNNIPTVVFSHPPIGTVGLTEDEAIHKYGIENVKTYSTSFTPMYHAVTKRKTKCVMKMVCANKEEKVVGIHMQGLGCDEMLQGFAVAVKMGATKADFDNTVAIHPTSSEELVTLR
UniProt A4HSF7, 1-491: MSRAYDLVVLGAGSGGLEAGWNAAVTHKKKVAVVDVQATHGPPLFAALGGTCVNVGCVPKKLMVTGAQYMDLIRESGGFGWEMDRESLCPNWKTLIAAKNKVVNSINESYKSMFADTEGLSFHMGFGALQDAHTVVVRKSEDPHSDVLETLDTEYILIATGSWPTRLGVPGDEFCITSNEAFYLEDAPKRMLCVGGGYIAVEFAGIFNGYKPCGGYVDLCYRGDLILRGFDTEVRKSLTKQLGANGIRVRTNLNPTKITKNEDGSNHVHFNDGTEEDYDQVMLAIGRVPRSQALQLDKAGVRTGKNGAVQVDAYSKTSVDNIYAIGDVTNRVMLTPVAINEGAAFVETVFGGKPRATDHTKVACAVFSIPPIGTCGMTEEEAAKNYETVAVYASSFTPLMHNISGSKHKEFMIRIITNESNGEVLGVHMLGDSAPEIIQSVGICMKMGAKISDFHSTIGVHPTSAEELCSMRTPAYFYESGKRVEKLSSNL

Tests used:
[1] = molecular target: human glutathione reductase (hGR) (Homo sapiens, UniProt P00390); assay: hGR assay (NADPH-Glo); format: biochemical; conditions: read-out: hGR assay IC50; n=3
From the text: (§1) L. infantum TR was cloned and purified as previously described.[9, 28] Bovine serum albumin (BSA), NADPH, auranofin, hGR, oxidized glutathione (GSSG) and DTNB were purchased from Sigma-Aldrich (St. Louis, MO); oxidized trypanothione (TS2) was purchased from Bachem (Bubendorf, Switzerland); the NADPH-Glo kit was purchased from Promega (Madison, WI, U.S.A.). Compounds, dissolved in DMSO, were transferred to 384-well white plates (Greiner Bio One, Frickenhausen, Germany) using the acoustic droplet ejection technology (ATS-100, EDC Biosystems, U.S.A.) to reach the desired final concentration. The TR enzymatic reaction was performed by addition of 0.1 nM TR, 12.5 μM NAPDH, 15 μM TS2 in 50 mM HEPES (pH 7.4), 40 mM NaCl, 0.01% BSA in a final volume of 15 μL. After 60 min of incubation at room temperature, an equal volume of NADPH-Glo reagent was added and the luminescent signal was acquired by an EnVision plate reader (PerkinElmer, Waltham, MA, U.S.A.). […] In addition, in order to make sure that the production of a reducing agent (i.e. T(SH)2) by the TR activity was not going to interfere with the assay, and in absence of T(SH)2 as purified reagent, the effect of DTT and GSH was tested on the NADPH-Glo reaction resulting in no interference at concentrations relevant for the current setup (S2 Fig). The hGR assay was performed by addition of 0.5 nM hGR, 10 μM GSSG, 20 μM NADPH in 50 mM HEPES (pH 7.4), 40 mM NaCl, 0.01% BSA in a final volume of 15 μL. After 30 min incubation at room temperature 15 μl of NADPH-Glo kit was added to reveal the signal. The 5,5′-dithiobis(2-nitrobenzoic acid) (DTNB) assay was performed using 2 nM TR, 100 μM NADPH, 4 μM TS2 and 200 μM DTNB in 40 mM HEPES (pH 7.4), 1 mM EDTA, 0.01% BSA and 0.05% tween-20 in a final volume of 50 μl. The absorbance signal (412 nm) was acquired 15 minutes post incubation at room temperature using the plate reader (Safire2, Tecan, Switzerland). Results were analyzed using Prism software (GraphPad, San Diego, CA, U.S.A.) and Vortex (Dotmatics, Bioshops Stortford, UK). Dose-response curves were fitted by four-parameter logistic regression.

L. infantum TR = L. infantum TR (Leishmania infantum, UniProt A4HSF7); assay: Luminescence-based (NADPH-Glo) TR enzymatic assay; conditions: read-out: TR assay IC50; n=3
From the text: as §1

Row | SMILES | IC50 [1] [µM] | IC50 (L. infantum TR) [µM]
1 | O=C(CCN1CCCC1)c1ccc2ccccc2c1 | > 85 | 23.1
2 | CCc1ccc(C(=O)CCN(C)C)cc1 | > 85 | 4.33
3 | CN(C)CCC(=O)c1ccc(NS(C)(=O)=O)cc1 | > 85 | 31.3
4 | O=C(CCNc1ccc(C(=O)N2CCCCC2)cc1)c1cccc([N+](=O)[O-])c1 | > 85 | 28.9
5 | O=C(O)c1ccc(NCCC(=O)c2cc3ccccc3o2)cc1 | > 85 | 28.9
6 | CN(C)CCC(=O)c1ccc2ccccc2c1 | 31 | 9.46
